Reference: article PMC6784069 (Toxins, 2019)

Assay: general procedure: Fmoc solid-phase peptide synthesis; Fmoc-Phe(OtBu)-Wang resin (0.5 mmol/g loading); Fmoc-Cys(Boc)-Wang resin (0.55 mmol/g loading) for Delta-C-ter variant; dicyclohexylcarbodiimide/1-hydroxy-7-azabenzotriazole (HOAT)
Details: oxidative folding step, several disulfide bridges, sequence written open

**Q.** With --A--CLGQWDSCDPKASKCCPNYACEWKYPWCRYKLF- as the substance, how does the oxidative folding yield read?
**A.** 12%
